Reference: US20090162366A1

Columns and labels:
Assay in all cases: ELISA on peptide, Ab 10 µg/ml
[1] = biological target: M15 (influenza A virus)
[2] = biological target: M16 (influenza A virus)
[3] = biological target: NM15 (influenza A virus)
[4] = biological target: NM16 (influenza A virus)
[5] = biological target: NM17 (influenza A virus)

B1: N547 (antibody, V domains shown)
VH: EVQLVESGGGLVKPGGSLRLSCAASGFTFSNALMSWVRQAPGKGLEWVGRIKSKTNGGTTDYAAPVKGRFTISRDDSKNTLYLQMNSLKTEDTAVYYCTTHLRYFDWLSDYWGQGTLVTVSS
VL: QSVLTQPPSMSAAPGQKVTISCSGSSSNIGNNYISWYQQLPGTAPKVLIYDNNKRPSGIPDRFSGSKSGTSATLGITGLQTGDEADYYCGSWDSSLSAGVFGTGTKVTVLG
B1 showed an ELISA(OD450) [1] of 0.07 OD450, an ELISA(OD450) [2] of 0.68 OD450 and an ELISA(OD450) [3] of 0.09 OD450. It also gave an ELISA(OD450) [4] of 1.13 OD450 and an ELISA(OD450) [5] of 1.04 OD450.
